Anti-infective test results gathered from many reports (values: NIAID ChemDB through PubChem).

Shared fields: whole-cell or culture tests; organism: Mycobacterium tuberculosis

a–b is a range or a potency band.

SMILES	strain	endpoint	cells	tested at	changes	method	value
Cc1ccc2c(=O)c3ccccc3oc2c1	H37Rv	inhibition	-	2 µg/mL	-	-	inactive
Cn1nc(N)c2cc(C(N)=O)c(N)nc21	H37Rv	MIC bound	-	-	-	BACTEC	>12.5 µg/mL
Cc1ccc(-c2cs/c(=N\NC(=O)COc3cnccn3)n2CC(C)C)cc1	H37Rv	MIC	-	-	-	-	13 µg/mL
CCCCCCCCCCCNCCNCc1ccccc1F	-	MIC	-	-	-	-	25 µM
Cc1cccc(/C=N/NC(=S)N(C)C)n1.[Cl][Cu][Cl]	KZN494	MIC90	-	-	-	-	0.78 µM
CC(C)CC(C)NCCNCCc1ccccc1	-	MIC	-	-	-	-	50 µM
S=C1SCN(Cc2cccs2)CN1Cc1cccs1	H37Rv	inhibition	-	12.5 µg/mL	-	BACTEC	8%
CCC1CN(c2c(F)cc3c(=O)c(C(=O)O)cn(C4CC4)c3c2OC)CCN1	Isolate TN7804	MIC	-	-	-	-	0.1 µg/mL
CCN(CC)CC.NS(=O)(=O)c1ccc(NC(=S)S)cc1	H37Rv	inhibition	-	128 µg/mL	-	BACTEC	100%
CC(C)(C)c1ccc(Nc2nc(-c3ccccn3)cs2)cc1	H37Rv	MIC	-	-	-	visual reading	2.4 µM
O=C(Nc1ccc(Nc2ccncc2)cc1)c1ccc(Nc2ccnc3ccc([N+](=O)[O-])cc23)cc1[N+](=O)[O-]	H37Rv	MIC	VERO	-	-	-	3.13 µg/mL
CCOC(=O)N(c1ccc(S(N)(=O)=O)cc1)c1cc(Cl)c([N+](=O)[O-])c(N)n1	H37Rv	inhibition	-	12.5 µg/mL	-	-	0%
COc1ccc(CCc2cc(OC)c3ccccc3n2)cc1OC	MT8	MIC	-	-	-	-	39 µg/mL
Nc1ccc2oc3c(C(=O)O)cccc3c(=O)c2c1	H37Rv	inhibition	-	32 µg/mL	-	-	inactive
NNC(=O)c1ccncc1	Clinical isolate 11	MIC	-	-	-	resazurin / absorbance	0.03 µg/mL
CCN(CC)CC1=CC(=Nc2cc(OC)cc3cccnc23)C=CC1=O	H37Rv	MIC bound	-	-	-	BACTEC	>12.5 µg/mL
C/C=C/c1ccc2oc(-c3ccc(OC)c(OC)c3)c(C)c2c1	Clinical isolate 57	MIC	-	-	-	resazurin / absorbance	7.8 µg/mL
O=[N+]([O-])c1cn2c(n1)OC[C@@H](OCc1ccc(OC(F)(F)F)cc1)C2	H37Rv-T3-Fgd1 (PA-824-resistant)	MIC	-	-	-	-	0.8 µM
FC(F)(F)c1ccc(Nc2nc(-c3ccccn3)cs2)cc1	H37Rv	MIC	-	-	-	visual reading	20 µM
COC(=O)c1cccc2c(=O)c3ccccc3oc12	H37Rv	inhibition	-	8 µg/mL	-	-	inactive
CO[C@H]1/C=C/O[C@@]2(C)Oc3c(C)c(O)c4c(O)c(cc(OCC(=O)N(C)CCO)c4c3C2=O)NC(=O)/C(C)=C\C=C\[C@H](C)[C@H](O)[C@@H](C)[C@@H](O)[C@@H](C)[C@H](OC(C)=O)[C@@H]1C	H37Rv	MIC	-	-	-	-	0.15 µg/mL
CC(=O)NC[C@H]1CN(c2ccc(N3CCOCC3)c(F)c2)C(=O)O1	6R	MIC	-	-	-	-	0.5 µg/mL
O=[N+]([O-])c1cn2c(n1)OC[C@@H](OCc1ccc(OCc3ccccc3)cc1)C2	H37Rv-5A1 (PA-824-resistant)	MIC	-	-	-	-	>100 µM
Cc1ccc2oc3ccccc3c(=O)c2c1	H37Rv	inhibition	-	8 µg/mL	-	-	inactive
CO[C@H]1/C=C/O[C@@]2(C)Oc3c(C)c(O)c4c(O)c(c(/C=N/N5CCN(C)CC5)c(O)c4c3C2=O)NC(=O)/C(C)=C\C=C\[C@H](C)[C@H](O)[C@@H](C)[C@@H](O)[C@@H](C)[C@H](OC(C)=O)[C@@H]1C	PR118	MIC	-	-	-	-	0.08 µg/mL
NNC(=O)c1ccncc1	linezolid resistant 8.7	MIC	-	-	T460C Cys154Arg	-	0.125 µg/mL
CCOC(=O)Nc1cc(N)c2c(n1)OCC(c1ccc(OC)c(OC)c1)=N2	H37Rv	inhibition	-	12.5 µg/mL	-	-	0%
CC(CO)[C@H]1OC(=O)C=C2[C@@]13O[C@@H]3[C@H]1OC(=O)[C@@]3(C)[C@H]4O[C@H]4C[C@@]2(C)[C@@H]13	H37Rv	MIC bound	-	-	-	BACTEC	>12.5 µg/mL
CC(=O)NC[C@H]1CN(c2ccc(N3CCN(c4ccc([N+](=O)[O-])s4)CC3)c(F)c2)C(=O)O1	V-591	MIC	-	-	-	-	0.5 µg/mL
NNC(=O)c1ccncc1	MDR-22 (MDR)	MIC	-	-	-	-	3.2 µg/mL
CCOC(=O)Nc1cc2[nH]c(CCc3ccccc3)nc2c(N(CCc2ccccc2)Cc2ccccc2)n1	H37Rv	EC50	-	-	-	-	<12.5 µg/mL
COC(=O)c1ccc2oc3c(C(=O)OC)cccc3c(=O)c2c1	H37Rv	inhibition	-	16 µg/mL	-	-	inactive
CC(C)(CO)NCCNCCc1c[nH]c2ccccc12	-	MIC	-	-	-	-	25 µM
O=C(CCCC(=O)NNC(=S)Nc1ccccc1Cl)NNC(=S)Nc1ccccc1Cl	H37Rv	inhibition	-	12.5 µg/mL	-	BACTEC	5%
CN1c2ccccc2CCC1CCc1ccc2c(c1)OCO2	MT10	MIC	-	-	-	-	>339 µg/mL
COC(=O)c1ccc2c(=O)c3ccccc3oc2c1	H37Rv	inhibition	-	32 µg/mL	-	-	inactive
CC(C)(C)c1ccc(C(=O)Nc2nnc(-c3ccccn3)s2)cc1	H37Rv	MIC	-	-	-	visual reading	>20 µM
Nc1nc(-c2cccc([N+](=O)[O-])c2)c(N=Nc2ccc([N+](=O)[O-])cc2)s1	H37Rv	inhibition	-	12.5 µg/mL	-	BACTEC	-40%
CCCCCCCCS(=O)(=O)CC(N)=O	10129-3	MIC	-	-	-	-	≤12.5 µg/mL
CN(C)CCCN1c2ccccc2Sc2ccc(Cl)cc21	Isolate E (drug-resistant)	MBC	-	-	-	-	30 µg/mL
CCCCCC(/C=N/NC(=O)c1ccc[n+](C)c1)=C\c1ccccc1.Cc1ccc(S(=O)(=O)[O-])cc1	H37Rv	inhibition	-	12.5 µg/mL	-	BACTEC	24%
FC(F)(F)c1ccccc1Nc1nc(-c2ccccc2)cs1	H37Rv	MIC	-	-	-	visual reading	>20 µM
CCCCC(CC)CN1CN(CC(CC)CCCC)CC(C)(NCCNC2CCC(C)CC2)C1	-	MIC	-	-	-	-	25 µM
COc1cccc(C2CC(c3c(O)c4ccccc4oc3=O)=NN2)c1O	INHR-MTB	MIC90	-	-	Isoniazid-resistant	agar	>6.25 µg/mL
CCS(=O)(=O)O.OC1CC2CCC(C1)N2CCCN1c2ccccc2Sc2ccc(Cl)cc21	H37Rv	MIC bound	-	-	-	BACTEC	≤12.5 µg/mL
C/C=C/c1ccc2oc(-c3ccc(O)c(OC)c3)c(C)c2c1	Clinical isolate 4851	MIC	-	-	-	resazurin / absorbance	7.8 µg/mL
CCOc1ccc(-n2c(-c3ccc(Cl)cc3)cs/c2=N\NC(=O)COc2cnccn2)cc1	H37Rv	MIC	-	-	-	-	19 µg/mL
COc1ccc2c(c1)n([O-])c1ccccc1[n+]2=O	H37Rv	MIC	VERO	-	-	-	0.8 µg/mL
COC(=O)Nc1cc(NC(O)/C(=C/O)c2ccccc2)c([N+](=O)[O-])c(N)n1	H37Rv	EC50	-	-	-	-	>12.5 µg/mL
Nc1ccc(/C(=N/NC(=O)C(=O)N/N=C(\c2ccccc2)c2ccc(N)cc2)c2ccccc2)cc1	H37Rv	inhibition	-	12.5 µg/mL	-	BACTEC	22%
O=C(COc1cnccn1)N/N=C1\SCC(=O)N1c1ccc(Cl)cc1Cl	H37Rv	MIC	-	-	-	-	148 µg/mL
O=C(c1ccccc1)c1c(CO[N+](=O)[O-])n([O-])c2ccccc2[n+]1=O	INH-r	MIC	-	-	-	-	12.5 µg/mL
CCCN(CCC)N(CCC)C(=O)COc1cc2c(O)c3c(O)c(C)c4c(c13)C(=O)[C@@](C)(O/C=C/[C@H](OC)[C@@H](C)[C@@H](OC(C)=O)[C@H](C)[C@H](O)[C@H](C)[C@@H](O)[C@@H](C)/C=C/C=C(/C)C(=O)N2)O4	H37Rv	MIC	-	-	-	-	0.09 µg/mL
NC(=O)c1cnccn1	DHMH 444	MIC	-	-	-	-	300 µg/mL
Cc1cc2oc(=O)c(C3=NNC(c4ccc(O)cc4O)C3)c(O)c2cc1C	H37Rv	MIC90	-	-	-	agar	11.22 µg/mL
Fc1ccccc1CCNCCNC12CC3CC(CC(C3)C1)C2	-	MIC	-	-	-	-	50 µM
COc1cc(C2c3cc4c(cc3[C@@H](OC3OC5CO[C@@H](C)OC5C(O)C3O)[C@H]3COC(=O)C23)OCO4)cc(OC)c1OC	H37Rv	inhibition	-	12.5 µg/mL	-	BACTEC	22%
CC1COc2c(N3CCN(C)CC3)c(F)cc3c(=O)c(C(=O)O)cn1c23	INH resistant (ATCC 35822)	MIC	-	-	-	-	0.5–1 µg/mL
CCC(C)NCCNC[C@]1(C)CCC[C@]2(C)c3ccc(C(C)C)cc3CC[C@@H]12	-	MIC	-	-	-	-	12.5 µM
CC[C@@H](CO)NCCN[C@@H](CC)CO	MDR20	MIC	-	-	-	broth dilution / resazurin	32 µg/mL
COc1cccc(/C=C/C(=O)c2c(O)c3cc(C)c(C)cc3oc2=O)c1O	H37Rv	MIC90	-	-	-	agar	>6.25 µg/mL
CO[C@H]1/C=C/O[C@@]2(C)Oc3c(C)c(O)c4c(O)c(cc(OCC(=O)N5CCOCC5C)c4c3C2=O)NC(=O)/C(C)=C\C=C\[C@H](C)[C@H](O)[C@@H](C)[C@@H](O)[C@@H](C)[C@H](OC(C)=O)[C@@H]1C	H37Rv	MIC	-	-	-	-	0.09 µg/mL
C=C1C(=O)[C@@]23CC[C@H]4C(C)(CCC[C@@]4(C)C(=O)OC)[C@@H]2CC[C@]1(O)C3	H37Rv	inhibition	-	12.5 µg/mL	-	BACTEC	96%
COc1c(N2C[C@@H]3CCCN[C@@H]3C2)c(F)cc2c(=O)c(C(=O)O)cn(C3CC3)c12	Isolate TN6515	MIC	-	-	-	-	0.037 µg/mL
Cc1cc2oc(=O)c(C3=NNC(c4ccc(C(F)(F)F)cc4)C3)c(O)c2cc1C	H37Rv	MIC90	-	-	-	agar	>6.25 µg/mL
CCCCN(C(=O)COc1cc2c(O)c3c(O)c(C)c4c(c13)C(=O)[C@@](C)(O/C=C/[C@H](OC)[C@@H](C)[C@@H](OC(C)=O)[C@H](C)[C@H](O)[C@H](C)[C@@H](O)[C@@H](C)/C=C/C=C(/C)C(=O)N2)O4)N(C)C	H37Rv	MIC	-	-	-	-	0.15 µg/mL
c1ccc(C(CCNCCN[C@H]2C[C@@H]3CC[C@H]2C3)c2ccccc2)cc1	-	MIC	-	-	-	-	12.5 µM
Cc1cccc(C)c1Nc1nc(-c2cccnc2)cs1	H37Rv	MIC	-	-	-	visual reading	>20 µM
NNC(=O)c1ccncc1	ATCC35801	MIC	-	-	-	-	0.062 µg/mL
Cc1cc([N+](=O)[O-])cc2c(=O)c3cc([N+](=O)[O-])ccc3oc12	H37Rv	inhibition	-	8 µg/mL	-	-	inactive
Cc1ncc([N+](=O)[O-])n1CCN(C)C(=O)CCCn1ccnc1[N+](=O)[O-]	H37Rv	MIC bound	-	-	-	resazurin	>6.25 µg/mL
CCOC(=O)Nc1cc2c(c(N)n1)N=C(c1ccc(OC)cc1)CS2	H37Rv	EC50	-	-	-	-	>12.5 µg/mL
Nc1nc(N)c(N=Nc2ccc(S(N)(=O)=O)cc2)c(N)n1	H37Rv	MIC bound	-	-	-	BACTEC	>12.5 µg/mL
CO[C@H]1/C=C/O[C@@]2(C)Oc3c(C)c(O)c4c(O)c(c5c(c4c3C2=O)NC2(CCN(CC(C)C)CC2)N=5)=NC(=O)/C(C)=C\C=C\[C@H](C)[C@H](O)[C@@H](C)[C@@H](O)[C@@H](C)[C@H](OC(C)=O)[C@@H]1C	MDR-2037 (MDR)	MIC	-	-	-	-	1.6 µg/mL
COc1ccccc1N=Nc1c(S(=O)(=O)O)cc2cc(NC(=O)Nc3ccc4c(O)c(N=Nc5c(N)ccc6cc(S(=O)(=O)O)ccc56)c(S(=O)(=O)O)cc4c3)ccc2c1O	H37Rv	inhibition	-	12.5 µg/mL	-	BACTEC	0%
NCC[C@H](O)C(=O)N[C@@H]1C[C@H](N)[C@@H](O[C@H]2O[C@H](CN)[C@@H](O)[C@H](O)[C@H]2O)[C@H](O)[C@H]1O[C@H]1O[C@H](CO)[C@@H](O)[C@H](N)[C@H]1O	8R	MIC	-	-	-	-	2.5 µg/mL
COC(=O)c1ccc(NCc2c(O)ccc(O)c2Br)cc1Cl	H37Rv	MIC bound	-	-	-	BACTEC	>12.5 µg/mL
CCCCN1C(=O)CS/C1=N\NC(=O)COc1cnccn1	H37Rv	MIC	-	-	-	-	159 µg/mL
O=C(N/N=C/c1cccc2ccccc12)C(=O)N/N=C/c1cccc2ccccc12	H37Rv	MIC bound	-	-	-	BACTEC	>12.5 µg/mL
O=C([C@@H](O)CO)N1CC=C(c2c(F)cc(N3C[C@H](COc4ccon4)OC3=O)cc2F)CC1	H37Rv STR-resistant (ATCC 35820)	MIC	-	-	-	broth dilution	1 µg/mL

Rows are shuffled and stem from different studies. ECn is the concentration giving n% inhibition of infection, replication or growth. An empty or dashed field is not shown. MIC50, MIC90 and the like: level of inhibition, or share of isolates inhibited. MIC bound comes from a single tested concentration. Percent inhibition refers to the dose given; in toxicity tests it is the harm to the cells. For "inactive" no cut-off is given.